A mixed list of measured activities; the numbers were collected in NIAID ChemDB.

All rows: cytotoxicity tests; cell line: VERO; measure: CC50

Conditions beyond the fields shown may differ between rows. CCn is the concentration with n% toxicity to the cells. Blank or dashed fields: not listed here.

compound,method,value
COC(=O)c1cn([C@@H]2C[C@H](CCP(=O)(O)O)C[C@H]2O)nn1,-,>100 µM
COc1cccc2cc(-c3cc(C(=O)OC(C)C)no3)oc12,-,>128 µM
Cc1cn([C@H]2C[C@H](N=[N+]=[N-])[C@@H](CO)O2)c(=O)[nH]c1=O,-,29 µM
CCC[CH2][Sn]([F])([F])[CH2]CCC.c1cnc2c(c1)ccc1cccnc12,-,0.09 µg/mL
Cc1cccc(C)c1Nc1nnc(-c2ccccn2)s1,luminescence,60 µM
Clc1ncnc2c1ncn2C1C[C@@H]2C[NH2+][C@H]1C2.O=C([O-])C(F)(F)F,MTS,17 µM
CO[C@H]1/C=C/O[C@@]2(C)Oc3c(C)c(O)c4c(O)c(c(/C=N/N5CCN(C)CC5)c(O)c4c3C2=O)NC(=O)/C(C)=C\C=C\[C@H](C)[C@H](O)[C@@H](C)[C@@H](O)[C@@H](C)[C@H](OC(C)=O)[C@@H]1C,luminescence,>100 µM
CCn1c(C)c(C(N)=O)c(=O)c2ccc(-c3ccncc3)cc21,-,>50 µg/mL
CC(C)(C)C1=CC(=C2C(=O)C(=O)c3ccccc3C2=O)C=C(C(C)(C)C)C1=O,-,10 µg/mL
CC(C)OC(=O)c1cc(-c2cccs2)on1,-,>128 µM
Cc1ccc(C)c(NC2=CC(=O)C(=O)c3ccccc32)c1,-,>10 µg/mL
Nc1ncnc2c1[nH]c[n+]2C1C[C@H]2C[C@@H]1C[NH2+]2.O=C([O-])C(F)(F)F.O=C([O-])C(F)(F)F,MTS,>109 µM
CCOC(=O)CCc1ccccc1O[P@@](=O)(N[C@@H](C)C(=O)OCC)OC[C@H]1O[C@@H](n2cnc3c(N)nc(N)nc32)[C@](C)(O)[C@@H]1O,-,>100 µM
Nc1c(Cl)ncnc1NC1C[C@@H]2CC[C@H]1[NH2+]2.O=C([O-])C(F)(F)F,MTS,>141 µM
CC(C)(C)c1ccc(C(=O)Nc2nnc(-c3ccccn3)s2)cc1,luminescence,83 µM
O=C1Nc2ccccc2C(c2ccccc2)=NC1NS(=O)(=O)c1cccc(Br)c1,-,10 µM
CCn1cc(C(N)=O)c(=O)c2ccc(-c3ccncc3)cc21,-,>12.5 µg/mL
Cc1cccc2c1OP(=O)(OC[C@H]1O[C@@H](n3cc(/C=C/Br)c(=O)[nH]c3=O)C[C@@H]1OC(=O)CN)OC2,-,38.2 µg/mL
NC(=O)c1cn([C@@H]2C[C@H](CO)C[C@H]2O)nn1,-,>100 µM
CCOC(=O)c1cn(CC)c2c(cc([N+](=O)[O-])c3cccnc32)c1=O,luminescence,>100 µg/mL
Cc1cccc2c1OP(=O)(OC[C@H]1O[C@@H](n3cc(/C=C/Br)c(=O)[nH]c3=O)C[C@@H]1OC(=O)[C@H](N)CC(C)C)OC2,-,72.2 µg/mL
O=C(OCc1ccccc1)c1coc(-c2ccccc2)n1,MTS / absorbance,121 µM
CCN1C[C@]2(CO)CC[C@H](OC)[C@]34C5CC6[C@H](OC)C5[C@](O)(C[C@@H]6OC)[C@@](O)(C13)[C@@H](OC)[C@H]24,-,32 µg/mL
CCOC(=O)CCc1ccccc1OP(=O)(N[C@@H](C)C(=O)OCC)OC[C@H]1O[C@@H](n2cnc3c(N)nc(N)nc32)[C@](C)(O)[C@@H]1O,-,>100 µM
O=C(N/N=C/NNC(=O)c1ccncc1)c1ccncc1,-,>62.5 µg/mL
COc1ccc(/C(C)=N/NC(=O)c2ccncc2)cc1OC,-,>10 µg/mL
CCn1cc(C(=O)NCCN(C)C)c(=O)c2ccc(-c3ccncc3)cc21,-,>100 µg/mL
O=C(NC=Nc1ccc(C(=O)O)c(O)c1)c1cnccn1,-,>10 µg/mL
O=C1c2ccccc2C(=O)c2sc(Nc3cccc(Cl)c3)nc21,-,2 µg/mL
CO[C@H]1[C@@H](O)C[C@H](O[C@H]2[C@@H](O)C[C@H](O[C@H]3[C@@H](O)C[C@H](O[C@H]4CC[C@@]5(C)[C@H](CC[C@@H]6[C@@H]5CC[C@]5(C)[C@@H](C7=CC(=O)OC7)CC[C@]65O)C4)O[C@@H]3C)O[C@@H]2C)O[C@@H]1C,MTT,132.3 µM
COc1ccccc1NC(=O)NC1N=C(c2ccccc2)c2ccccc2NC1=O,-,1 µM
COC(=O)c1noc(/C=C/c2ccccc2)c1C(=O)c1ccccc1,-,88.07 µM
Nc1ncnc2c1ncn2C1CC(CCP(=O)(O)O)(C(F)(F)F)CO1,MTT,>100 µM
CCCCCCCCC/C=N/Nc1ccc([N+](=O)[O-])cn1,-,>10 µg/mL
CCOC(=O)CCc1ccccc1OP(=O)(N[C@@H](C)C(=O)OC(C)C)OC[C@H]1O[C@@H](n2cnc3c(N)nc(N)nc32)[C@](C)(O)[C@@H]1O,-,>100 µM
O=c1cc(-c2ccccc2)oc2cc(O)cc(O)c12,-,10 µg/mL
CC(=O)c1csc(Nc2ccccn2)n1,luminescence,>100 µM
Nc1cc2c(ncn2[C@@H]2O[C@H](CO)[C@@H](O)[C@H]2O)c(=O)[nH]1,-,32 µg/mL
CC(C)OC(=O)CCc1ccccc1O[P@@](=O)(N[C@@H](C)C(=O)OC(C)C)OC[C@H]1O[C@@H](n2cnc3c(N)nc(N)nc32)[C@](C)(O)[C@@H]1O,-,>100 µM
CCc1nc2ccc(Cl)cn2c1C(=O)NCc1ccc(N2CCC(c3ccc(OC(F)(F)F)cc3)CC2)cc1,luminescence,>100 µM
CCOC(=O)c1cn(C)c2c(cc([N+](=O)[O-])c3cccnc32)c1=O,luminescence,>100 µg/mL
CCN(CC)C(=S)[S][Sn]([S]C(=S)N(CC)CC)([c]1ccccc1)[c]1ccccc1,-,0.42 µg/mL
CO[C@H]1C[C@H](O[C@H]2CC[C@]3(C=O)[C@H]4CC[C@]5(C)[C@@H](C6=CC(=O)OC6)CC[C@]5(O)[C@@H]4CC[C@]3(O)C2)O[C@H](C)[C@H]1O[C@@H]1O[C@H](CO[C@@H]2O[C@H](CO)[C@@H](O)[C@H](O)[C@H]2O)[C@@H](O)[C@H](O)[C@H]1O,MTT,>250 µM
CCN1C[C@]2(COC)CC[C@H](O)[C@]34C1[C@@](O)([C@@H](OC)[C@H]23)[C@@]1(O)C[C@H](OC)C2C[C@@H]4[C@@H]1[C@H]2O,-,64 µg/mL
Cc1cccc2c1OP(=O)(OC[C@H]1O[C@@H](n3cc(/C=C/Br)c(=O)[nH]c3=O)C[C@@H]1OC(=O)[C@@H]1CCCN1)OC2,-,88.9 µg/mL
Cc1ccc(C(=O)Nc2ccc(S(=O)(=O)O)c3cc(S(=O)(=O)O)cc(S(=O)(=O)O)c23)cc1NC(=O)c1cccc(NC(=O)Nc2cccc(C(=O)Nc3cc(C(=O)Nc4ccc(S(=O)(=O)O)c5cc(S(=O)(=O)O)cc(S(=O)(=O)O)c45)ccc3C)c2)c1,-,150 µg/mL
O=C(Nc1nc(-c2ccccn2)cs1)c1ccccc1O,luminescence,11 µM
Cc1cccc2c1OP(=O)(OC[C@H]1O[C@@H](n3cc(/C=C/Br)c(=O)[nH]c3=O)C[C@@H]1OC(=O)[C@@H](N)CC(C)C)OC2,-,>128 µg/mL
CCn1cc(C(=O)N(C)C)c(=O)c2ccc(-c3ccncc3)cc21,-,>100 µg/mL
O=C1C=C[C@@H](COC2OC(CO)C(O)C(O)C2O)O1,-,0.7 µg/mL
COc1ccccc1Nc1nc(-c2ccccn2)cs1,luminescence,17 µM
Cc1ccc(NCCNCCO)c2c(=O)c3ccccc3sc12,-,5.69 µg/mL
CCOC(=O)c1cc(-c2ccc(-c3ccccc3)cc2)on1,-,102 µM
O=C1Nc2ccccc2C(c2ccccc2)=NC1NS(=O)(=O)c1ccc(Br)cc1,-,10 µM
COC(=O)C1C(OC(C)=O)C(C)C(O)C(C)(O)/C=C(\C)C2=C3C(=C(C)C(=O)c4c(O)c(c(C)c(OC(C)=O)c43)NC(=O)/C(C)=C/C=C\[C@](C)(O)C(O)[C@@H](C)C1O)OCO2,-,24.6 µg/mL
N#Cc1c(Br)n([C@@H]2O[C@H](CO)[C@@H](O)[C@H]2O)c2ncnc(N)c12,neutral red,10.6 µg/mL
O=C1Nc2ccccc2C(c2ccccc2)=NC1NCc1ccc([N+](=O)[O-])cc1,-,10 µM
CO[C@@]12[C@H](COC(=O)NCCO)C3=C(C(=O)C(C)=C(N)C3=O)N1C[C@H]1[C@@H]2N1C,-,>500 µg/mL
c1ccc(Nc2nc(-c3ccn[nH]3)cs2)nc1,luminescence,40 µM
NC(=O)c1cn([C@@H]2C[C@H](CCP(=O)(O)O)C[C@H]2O)nn1,-,>100 µM
Cc1cc(C)c2cc(C(=O)NC3CCCCC3)[nH]c2c1,resazurin,>200 µM
NC(=O)C#CC(N)=O,-,6.15 µg/mL
CCc1cn([C@H]2C[C@H](O)[C@@H](CO)S2)c(=O)[nH]c1=O,-,>1800 µM
COc1ccc2c(C)cc(N/N=C(/c3ccccc3)c3ccccn3)nc2c1,-,0.82 µg/mL
CC(=O)O[C@H]1C[C@H](O[C@H]2[C@@H](O)C[C@H](O[C@H]3[C@@H](O)C[C@H](O[C@H]4CC[C@@]5(C)[C@H](CC[C@@H]6[C@@H]5CC[C@]5(C)[C@@H](C7=CC(=O)OC7)CC[C@]65O)C4)O[C@@H]3C)O[C@@H]2C)OC(C)[C@H]1O[C@@H]1O[C@H](CO)[C@@H](O)[C@H](O)[C@H]1O,MTT,19 µM
CCOC(=O)CCc1ccccc1O[P@](=O)(N[C@@H](C)C(=O)OC(C)C)OC[C@H]1O[C@@H](n2cnc3c(N)nc(N)nc32)[C@](C)(O)[C@@H]1O,-,>100 µM
CCn1cc(C(N)=O)c(=O)c2ccc(-c3ccc([N+](=O)[O-])cc3)cc21,-,>100 µg/mL
Nc1nc(=O)n2ccn([C@@H]3O[C@H](CO)[C@@H](O)[C@H]3O)c2n1,-,>100 µg/mL
Oc1ccc(Br)cc1-c1nc2cc(Cl)c(Cl)cc2nc1-c1cc(Br)ccc1O,-,3 µg/mL
O=C([O-])C(F)(F)F.O=C([O-])C(F)(F)F.c1nc([NH2+]C2CC2)c2ncn(C3C[C@H]4CC[C@@H]3[NH2+]4)c2n1,MTS,>100 µM
CCOC(=O)[C@H](C)N[P@@](=O)(OC[C@H]1O[C@@H](n2cnc3c(N)nc(N)nc32)[C@](C)(O)[C@@H]1O)Oc1ccccc1CCC(=O)OC(C)C,-,>100 µM
CCCCCC(=O)N1[C@H]2CC[C@@H]1C(n1cnc3c(Cl)ncnc31)C2,MTS,104 µM
COc1ccc2sc3c(C)ccc(NCC4CCCN5CCCCC45)c3c(=O)c2c1,-,3.86 µg/mL
O=C(NC(=O)C1N=C(c2ccccc2)c2ccccc2NC1=O)c1cc2ccccc2s1,-,5 µM
COc1ccc(-c2cc(=O)c3c(O)cc(O)cc3o2)cc1,-,20 µg/mL
C[C@H]1O[C@@H](O[C@H]2CC[C@@]3(C)[C@H](CC[C@@H]4[C@@H]3CC[C@]3(C)[C@@H](C5=CC(=O)OC5)C(O)C[C@]43O)C2)C[C@H](O)[C@@H]1O[C@@H]1O[C@H](CO)[C@@H](O)[C@H](O)[C@H]1O,MTT,148.5 µM
O=C1C=C(NCCc2ccccc2)c2ccccc2C1=O,-,4.63 µg/mL
O=c1[nH]c(=O)n([C@H]2C[C@H](O)[C@@H](COP3(=O)OCc4cc(Cl)ccc4O3)O2)cc1/C=C/Br,-,72.9 µg/mL
Nc1nc2c(ncn2C2CC(CCP(=O)(O)O)(C(F)(F)F)CO2)c(=O)[nH]1,MTT,>100 µM
COc1ccc(CC(N=Cc2ccc3c(c2)OCO3)C(=O)NC2C(CO)OC(n3cnc4c(N(C)C)ncnc43)C2O)cc1,-,5.52 µg/mL
NC(=O)c1[nH]nc([C@@H]2O[C@H](CO)[C@@H](O)[C@H]2O)c1O,-,91 µg/mL
Cn1ncc2c(N(N)CCO)nc(-c3ccc([N+](=O)[O-])o3)nc21,-,4.87 µg/mL
Cc1cccc2c1OP(=O)(OC[C@H]1O[C@@H](n3cc(/C=C/Br)c(=O)[nH]c3=O)C[C@@H]1OC(=O)[C@@H](N)C(C)C)OC2,-,87 µg/mL
CC1CCN(SSc2nc3ccccc3s2)CC1,-,13 µg/mL
Cc1cccc2c1OP(=O)(OC[C@H]1O[C@@H](n3cc(/C=C/Br)c(=O)[nH]c3=O)C[C@@H]1OC(=O)C(C)C)OC2,-,32.2 µg/mL

Repeating the final 10 entries:

compound,method,value
C[C@H]1O[C@@H](O[C@H]2CC[C@@]3(C)[C@H](CC[C@@H]4[C@@H]3CC[C@]3(C)[C@@H](C5=CC(=O)OC5)C(O)C[C@]43O)C2)C[C@H](O)[C@@H]1O[C@@H]1O[C@H](CO)[C@@H](O)[C@H](O)[C@H]1O,MTT,148.5 µM
O=C1C=C(NCCc2ccccc2)c2ccccc2C1=O,-,4.63 µg/mL
O=c1[nH]c(=O)n([C@H]2C[C@H](O)[C@@H](COP3(=O)OCc4cc(Cl)ccc4O3)O2)cc1/C=C/Br,-,72.9 µg/mL
Nc1nc2c(ncn2C2CC(CCP(=O)(O)O)(C(F)(F)F)CO2)c(=O)[nH]1,MTT,>100 µM
COc1ccc(CC(N=Cc2ccc3c(c2)OCO3)C(=O)NC2C(CO)OC(n3cnc4c(N(C)C)ncnc43)C2O)cc1,-,5.52 µg/mL
NC(=O)c1[nH]nc([C@@H]2O[C@H](CO)[C@@H](O)[C@H]2O)c1O,-,91 µg/mL
Cn1ncc2c(N(N)CCO)nc(-c3ccc([N+](=O)[O-])o3)nc21,-,4.87 µg/mL
Cc1cccc2c1OP(=O)(OC[C@H]1O[C@@H](n3cc(/C=C/Br)c(=O)[nH]c3=O)C[C@@H]1OC(=O)[C@@H](N)C(C)C)OC2,-,87 µg/mL
CC1CCN(SSc2nc3ccccc3s2)CC1,-,13 µg/mL
Cc1cccc2c1OP(=O)(OC[C@H]1O[C@@H](n3cc(/C=C/Br)c(=O)[nH]c3=O)C[C@@H]1OC(=O)C(C)C)OC2,-,32.2 µg/mL